Reference: article PMC9981719, “A novel designed membrane-active peptide for the control of foodborne Salmonella enterica serovar Typhimurium” (Scientific Reports, 2023)
Where no end group is shown, it is not given here.

Tests used:
[1] = system: all Gram-negative strains; test: Geometric mean of MICs and therapeutic index, Gram-negative strains; type: cell-based; conditions: MHC > 250 taken as 500 µg/ml, < 0.98 as 0.49 µg/ml
From the text: (§1) All tests were done in triplicate.

[2] = system: all Gram-positive strains; test: Geometric mean of MICs and therapeutic index, Gram-positive strains; type: cell-based; conditions: MHC > 250 taken as 500 µg/ml, < 0.98 as 0.49 µg/ml
From the text: as §1

## CC[C@H](C)[C@H](NC(=O)CN)C(=O)NCC(=O)N[C@@H](C)C(=O)N[C@H](C(=O)N[C@@H](CC(C)C)C(=O)N[C@@H](CCCCN)C(=O)N[C@H](C(=O)N[C@@H](CC(C)C)C(=O)N[C@H](C(=O)N[C@H](C(=O)NCC(=O)N[C@@H](CC(C)C)C(=O)N1CCC[C@H]1C(=O)N[C@@H](C)C(=O)N[C@@H](CC(C)C)C(=O)N[C@H](C(=O)N[C@@H](CO)C(=O)N[C@@H](Cc1c[nH]c2ccccc12)C(=O)N[C@H](C(=O)N[C@@H](CCCCN)C(=O)N[C@@H](CCCNC(=N)N)C(=O)N[C@@H](CCCCN)C(=O)N[C@@H](CCCNC(=N)N)C(=O)N[C@@H](CCC(N)=O)C(=O)N[C@@H](CCC(N)=O)C(N)=O)[C@@H](C)CC)[C@@H](C)CC)[C@@H](C)O)[C@@H](C)O)C(C)C)C(C)C [Melittin, reference compound]
[1]
  TI (Gr.- strains), ratio of the MHC to the geometric mean of MICs from Gram-negative strains: 0.07
[2]
  TI (Gr. + strains), ratio of the MHC to the geometric mean of MICs from all Gram-positive strains: 0.13

## GVKKVAHKVVKIGRKVAW-NH2 [A6]
[1]
  TI (Gr.- strains), ratio of the MHC to the geometric mean of MICs from Gram-negative strains: 8
[2]
  TI (Gr. + strains), ratio of the MHC to the geometric mean of MICs from all Gram-positive strains: 1.00

## GVKKVAHKVVKIGRKVAWGAVSGV-NH2 [A4]
[1]
  TI (Gr.- strains), ratio of the MHC to the geometric mean of MICs from Gram-negative strains: 11.31
[2]
  TI (Gr. + strains), ratio of the MHC to the geometric mean of MICs from all Gram-positive strains: 1.00

## GVKKVARKVVKIGRKVAR-NH2 [A9]
[1]
  TI (Gr.- strains), ratio of the MHC to the geometric mean of MICs from Gram-negative strains: 5.66
[2]
  TI (Gr. + strains), ratio of the MHC to the geometric mean of MICs from all Gram-positive strains: 4.00

## WVKKVARKVVKIGRKVAR-NH2 [A11]
[1]
  TI (Gr.- strains), ratio of the MHC to the geometric mean of MICs from Gram-negative strains: 22.62
[2]
  TI (Gr. + strains), ratio of the MHC to the geometric mean of MICs from all Gram-positive strains: 6.35
